{"source": "PubChem BioAssay AID504761 (Drosophila RNAi Screening Center, 2011)", "screen": "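Insect host genes that dengue virus relies on to spread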 (primary screen)", "cells": "D.Mel-2 cells from Drosophila", "reagents": "long dsRNA against Drosophila genes", "challenge": "infection with dengue virus type 2; dose and infection time not stated", "read-out": "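Per well on two replicate plates, imaging gave the percent of cells positive for viral envelope protein, ranked by infection, and a nuclear count of cells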", "direction": "infection score: higher = more virus-infected cells", "hit rule": "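Very low infection ranking in both replicate wells (chance probability at most 0.065), then a retest showing infection dropped 1.5-fold or more at p below 0.05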", "meaning of the calls": "active = confirmed: knock-down lowers infection; inactive = not picked or not confirmed", "note": "In all, the deposit lists about 22,000 reagents; shown is an unselected part of those that have a named target and a result. Of all reagents, 116 (0.52%) were called active. 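Calls depend on retest data that are not deposited; infection was ranked per plate without normalising between plates; the unit of the infection score is not given.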 Further read-outs or replicates are left out here. Reagent sequences are not shown. The record does not give: the amount of reagent, the time to read-out."}
{"gene": "Obp58c", "dsRNA": "DRSC04166", "infection score, replicate 1": 10.9, "call": "inactive"}
{"gene": "wde", "dsRNA": "DRSC05955", "infection score, replicate 1": 3.64, "call": "inactive"}
{"gene": "GstD9", "dsRNA": "DRSC14185", "infection score, replicate 1": 4.52, "call": "inactive"}
{"gene": "GstD9", "dsRNA": "DRSC25307", "infection score, replicate 1": 1.49, "call": "inactive"}
{"gene": "sphe", "dsRNA": "DRSC20203", "infection score, replicate 1": 5.39, "call": "inactive"}
{"gene": "CG31636", "dsRNA": "DRSC02276", "infection score, replicate 1": 3.87, "call": "inactive"}
{"gene": "CG31636", "dsRNA": "DRSC24911", "infection score, replicate 1": 3.38, "call": "inactive"}
{"gene": "Gle1", "dsRNA": "DRSC06485", "infection score, replicate 1": 10.3, "call": "inactive"}
{"gene": "Gle1", "dsRNA": "DRSC29960", "infection score, replicate 1": 4.08, "call": "inactive"}
{"gene": "CG31706", "dsRNA": "DRSC22704", "infection score, replicate 1": 7.87, "call": "inactive"}
{"gene": "SMC2", "dsRNA": "DRSC07544", "infection score, replicate 1": 6.69, "call": "inactive"}
{"gene": "SMC2", "dsRNA": "DRSC29763", "infection score, replicate 1": 6.35, "call": "inactive"}
{"gene": "CG15570", "dsRNA": "DRSC18058", "infection score, replicate 1": 5, "call": "inactive"}
{"gene": "CG31103", "dsRNA": "DRSC22324", "infection score, replicate 1": 1.45, "call": "inactive"}
{"gene": "CG10710", "dsRNA": "DRSC09784", "infection score, replicate 1": 1.79, "call": "inactive"}
{"gene": "Cpr64Ac", "dsRNA": "DRSC08462", "infection score, replicate 1": 3.72, "call": "inactive"}
{"gene": "Cpr64Ac", "dsRNA": "DRSC27976", "infection score, replicate 1": 8.53, "call": "inactive"}
{"gene": "Syngr", "dsRNA": "DRSC06003", "infection score, replicate 1": 1.77, "call": "active"}
{"gene": "CG32485", "dsRNA": "DRSC22666", "infection score, replicate 1": 5.31, "call": "inactive"}
{"gene": "CG31343", "dsRNA": "DRSC15887", "infection score, replicate 1": 1.68, "call": "inactive"}
{"gene": "CG6282", "dsRNA": "DRSC10616", "infection score, replicate 1": 3.68, "call": "inactive"}
{"gene": "CG6282", "dsRNA": "DRSC29524", "infection score, replicate 1": 20.9, "call": "inactive"}
{"gene": "Letm1", "dsRNA": "DRSC04476", "infection score, replicate 1": 20.9, "call": "inactive"}
{"gene": "CG9426", "dsRNA": "DRSC03219", "infection score, replicate 1": 4.22, "call": "inactive"}
{"gene": "geminin", "dsRNA": "DRSC04984", "infection score, replicate 1": 6.46, "call": "inactive"}
{"gene": "geminin", "dsRNA": "DRSC29794", "infection score, replicate 1": 19.2, "call": "inactive"}
{"gene": "CG18294", "dsRNA": "DRSC09891", "infection score, replicate 1": 8.21, "call": "inactive"}
